System: HAd4
Experiment: HAd4 yield reduction assay (multiple step growth curve) in A549 cells
Settings: 10 μM 105, 100 μM Cidofovir or both

Structure (SMILES) | reduction of total virus yield (24 hours post infection) [logs] | reduction of total virus yield (48 hours post infection) [logs] | reduction of total virus yield (96 hours post infection)
Nc1ccn(C[C@@H](CO)OCP(=O)(O)O)c(=O)n1 [Cidofovir, (S)-1-[3-Hydroxy-2-(phosphonylmethoxy)propyl]-cytosine, reference compound] | 2 | 2 | 3 logs
CCC(CO)Nc1nc(NCc2ccccc2N)c2ncn(C(C)C)c2n1 (stereo not drawn) [Compound 105, 2-({6-[(2-aminobenzyl)amino]-9-isopropyl-9H-purin-2-yl}amino)butan-1-ol] | 5 | 1 | no overall effect
